Experimental findings from patent US20100240746A1, “STEREOISOMERS OF TRICYCLODECAN-9-YL-XANTHOGENATE” (LUMAVITA AG, priority 2007, published 2010) are described below.

This data set deals with herpes simplex virus type 2. Kind of data set: HSV-2 inhibition in Calu-6 cells, plaque titration on RITA cells. The class given is cell-based. The settings on record: LD50 divided by IC50. How it is done:
Calu-6 cells and RITA cells were grown in DMEM cell culture medium containing 10% fetal calf serum in CO2 incubator under 5% CO2 at 37° C. with 100% humidity.
For HSV-2 inhibition, Calu-6 cells were seeded in 96 well plates at a density of 3×10^6 cells per plate in the DMEM cell culture medium. The plates were incubated at 37° C. in the presence of 5% CO2 for 24 hr. The DMEM cell culture medium in the plates was removed and the cells were infected with Herpes simplex virus type-2 at 50 plaque forming units per well. After incubation at 37° C. for 60 min, test compounds in DMEM cell culture medium at a series of concentrations were added. The plates were incubated at 37° C. in the presence of 5% CO2 for 48 hr. The plates were frozen at −20° C. prior to further analysis. After thawing at room temperature, supernatants containing infectious virus particles were prepared by centrifuging the supernatant from each well at 18,000 g at 4° C. for 5 min. The supernatant was further diluted before assay.
RITA cells were seeded in 24 well Linbra plates at a density of 4×10^6 cells per plate in 2 mL of DMEM cell culture medium. The plates were incubated at 37° C. in the presence of 5% CO2 for 24 hr. After the removal of the cell culture medium, 0.1 mL of the diluted supernatants was added and the plates were incubated at 37 C for 1 hr. DMEM cell medium containing 10% fetal calf serum and 0.5% methyl cellulose was added and the plates were incubated at 37 for 48 hr. The plates were then washed with PBS, fixed with 3% formaldehyde solution containing 0.9% NaCl for 1 min, washed by water for 10 sec, and dried overnight. For detection, the plates were then stained with crystal violet solution for 5 min at room temperature, washed 5 times with water, and dried at room temperature overnight. The number of plaques was determined macroscopically. The number of plaques per well was then multiplied with the dilution factor. Dose response curves were obtained by plotting the number of plaques/0.1 mL against compound concentration. The therapeutic index was also calculated for each compound by dividing LD50 with IC50.
For `S=C(S)OC1CC2CC1C1CCCC21` (single isomer, unassigned; enantiomer 1a) [(+)-Enantiomer 1A, (+)-O-exo/C-exo-tricyclo[5.2.1.0^2,6]-dec-9-yl-xanthic acid 1A], the “Therapeutic Index” value amounted to 3.9.
The result for `S=C(S)OC1CC2CC1C1CCCC21` (single isomer, unassigned; enantiomer 1a) [(−)-Enantiomer 1A, (−)-O-exo/C-exo-tricyclo[5.2.1.0^2,6]-dec-9-yl-xanthic acid 1A] reads 10.4; that for `S=C(S)O[C@@H]1C[C@@H]2C[C@H]1[C@H]1CCC[C@@H]21` (racemic) [Racemic 1A, racemic O-exo/C-exo xanthic acid 1A], 5.6.
As for `S=C(S)OC1CC2CC1C1CCCC21` (stereo not shown) [Compound D609, tricyclodecan-9-yl-xanthogenate], the figure is 3.5.
